Data from US20030069276A1, “Amino piperidine derivatives” (priority 2001, published 2003).
This is a selection: effects in other tests are not listed, and their absence says nothing.

Amino acid sequences for entries named in this document (tags omitted).
UniProt P51681, whole entry: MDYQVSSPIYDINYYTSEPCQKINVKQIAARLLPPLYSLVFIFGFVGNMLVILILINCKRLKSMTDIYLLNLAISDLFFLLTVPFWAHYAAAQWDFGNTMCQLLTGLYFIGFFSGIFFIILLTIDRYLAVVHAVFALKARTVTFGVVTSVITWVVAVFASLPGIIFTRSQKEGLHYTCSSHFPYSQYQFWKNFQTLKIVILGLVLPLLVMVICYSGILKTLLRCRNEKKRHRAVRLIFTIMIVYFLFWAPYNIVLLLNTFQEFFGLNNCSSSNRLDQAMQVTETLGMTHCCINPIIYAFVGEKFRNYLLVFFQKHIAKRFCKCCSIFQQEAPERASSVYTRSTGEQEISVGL

Biological target: human CCR5 (Homo sapiens, UniProt P51681)
Experiment: gp120-sCD4-CCR5 binding assay (FACS)
Conditions: read-out: FACS IC50; CHO-K1 cell line stably transfected with the human CCR5 gene; biotinylated gp120 (JRFL strain) and soluble recombinant CD4; 1% DMSO
Method: gp120-sCD4-CCR5 Binding Assay:
The gp120-sCD4-CCR5 binding assay was carried out as previously described (Dragic, T., A. Trkola, et al. (2000). “A binding pocket for a small molecule inhibitor of HIV-1 entry within the transmembrane helices of CCR5.” Proc Natl Acad Sci USA 97: 5639-44.) with the following minor modifications: the cell line used for these experiments was a CHO-K1 cell line stably transfected with the human CCR5 gene; the gp120-CD4 complex comprised recombinant biotinylated gp120 (JRFL strain) and soluble recombinant CD4; and all compounds were tested in a final concentration of 1% DMSO.
All reagents and cell lines were obtained from Progenics Pharmaceuticals Inc, Tarrytown, N.Y., USA, and are commercially available or can be prepared according to the methods described and the information given in the papers above.

## CNC(=O)N(c1ccccc1)C1CCN(Cc2nc(-c3ccc(C)cc3)[nH]c2C)CC1
  IC50: 180 nM
